{
  "source": "patent US8318804B2",
  "about": "(priority 2007, dated 2012)",
  "tested_on": "A/WY/03/2003 (H3N2) influenza virus",
  "conditions": "10 μg/mL; FIG. 16; MDCK cells, 72 h",
  "data": [
    {"substance": "ethyl-(2R/S, 1′R,4′S)-2-(4′-hydroxy-2′-cyclopenten-1′-yl)-2-nitroacetate", "values": [
      {"measurement": "protection from the selected influenza strain (cell viability assay)", "value": 75, "unit": "%"}
    ]}
  ]
}
